# Share of PSTVd loop 6 variants by leaf site

Data from the supplement of Wu et al. 2024, doi:10.1371/journal.ppat.1012142.

Region: loop 6 of PSTVd (intermediate strain), upper and lower strand joined, each 5' to 3', the first 5 letters being the upper strand, closing pairs included. Wild type: UGACCGCGAG. Varied positions (N): UNNNCGNNNG.

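Three N. benthamiana plants were inoculated with the whole mutant pool. Progeny were sequenced from the inoculated region (day 5), the margin of the inoculated leaf (day 10) and systemic leaves (day 12).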

Numbers give reads per thousand; 0 = not seen among the reads, higher = more abundant. Each site shows the three plants. "Pool" is the share in the plasmid pool used as inoculum, on the same scale. The inoculated region was read from the minus strand, the other sites from the plus strand. With 36,220-57,551 reads a sample, very low values are single reads. Sequences that differ at fixed positions probably stem from PCR or sequencing errors, and defective variants can be carried along by functional ones. For reference, wild type rose from 20.7 per thousand in the pool to 195, 198, 203 (inoculated region), 629, 591, 734 (leaf margin) and 942, 870, 868 (systemic leaves).

| sequence | pool | inoculated region | leaf margin | systemic leaves |
|---|---|---|---|---|
| UCUUCGGGGG | 0.144 | 0.0695 0.0719 0.0553 | 0.0276 0 0 | 0 0 0 |
| UAUCCGUACG | 0.275 | 0.122 0.0539 0.0553 | 0.0276 0 0 | 0 0 0 |
| UAGACGCCUG | 0.222 | 0.104 0.0539 0.129 | 0 0.0504 0.0232 | 0 0 0 |
| UUACCUCGAG | 0.0131 | 0.626 0.611 0.369 | 0.138 0.0252 0.0464 | 0.0539 0.0202 0.123 |
| UAGUCGAAGG | 0.170 | 0.104 0.0719 0.0553 | 0.0276 0 0.0232 | 0 0 0 |
| UUCGCGAACG | 0.144 | 0.0869 0.0719 0.111 | 0 0 0.0464 | 0 0 0 |
| UUGCCGCAGG | 0.261 | 0.0695 0.108 0.0738 | 0.0276 0 0 | 0 0 0 |
| UUAACGUAAG | 0.131 | 0.747 0.683 0.443 | 0.110 0.0757 0.116 | 0 0 0 |
| UCCCCGGGGG | 0.157 | 0.122 0.0539 0.0922 | 0 0 0.0232 | 0 0 0 |
| UCCUCGCGGG | 0.144 | 0.156 0.0539 0.0922 | 0 0 0 | 0 0 0 |
| UUCUCGACCG | 0.170 | 0.0174 0.0359 0.0553 | 0 0 0 | 0 0 0 |
| UCUGCGUCUG | 0.261 | 0.139 0.0539 0.0369 | 0 0 0 | 0 0 0 |
| UUGCCGCAUG | 0.131 | 0.0869 0.0180 0.0922 | 0 0 0 | 0 0 0 |
| UCCCCGCGCG | 0.209 | 0.156 0.144 0.0922 | 0 0.0252 0 | 0 0 0 |
| UCACCGCUUG | 0.144 | 0.209 0.108 0.0922 | 0 0 0.0928 | 0 0 0 |
| UCGCCGGGUG | 0.261 | 0.0869 0.0180 0.0922 | 0.0276 0.0252 0.0232 | 0 0 0 |
| UCUGCGUGGG | 0.157 | 0.104 0.126 0.0553 | 0 0 0 | 0 0 0 |
| UGUACGGUAG | 0.222 | 0.0869 0.162 0.0184 | 0 0 0.0232 | 0 0 0 |
| UACGCGACAG | 0.131 | 0.0869 0.108 0.111 | 0 0 0 | 0 0 0 |
| UGAGCGGGAG | 0.183 | 0.608 4.54 6.23 | 1.24 1.36 0.835 | 0.198 0.606 0.431 |
| UGGGCGCUAG | 0.0523 | 0.0695 0.108 0.148 | 0 0 0 | 0 0 0 |
| UGUACGGCAG | 0.170 | 0.799 0.413 0.369 | 0.0552 0.101 0.0696 | 0.0180 0 0 |
| UAAACGCAUG | 0.170 | 0.591 0.611 0.424 | 0.0828 0.202 0.139 | 0 0.101 0.0410 |
| UACGCGAGAG | 0.170 | 0.0695 0.126 0.0738 | 0 0 0.0232 | 0 0 0 |
| UUCGCGACGG | 0.353 | 0.156 0.126 0.0738 | 0 0 0 | 0 0 0 |
| UACACGAUGG | 0.235 | 0.0348 0.0719 0.0553 | 0 0 0.0232 | 0 0 0 |
| UCUACUGUCC | 0.0131 | 0 0 0 | 0.0276 0 0 | 0 0 0 |
| UGCUCGGACG | 0.235 | 0.174 0.0898 0.0553 | 0.0276 0 0 | 0 0 0 |
| UCCACGUCAG | 0.248 | 0.139 0.108 0.0369 | 0.0276 0 0 | 0 0 0 |
| UUAACGGAAG | 0.131 | 0.712 4.37 5.66 | 0.883 1.26 0.835 | 0.162 0.465 0.595 |
| UACUCGCUCG | 0.261 | 0.174 0.0719 0.0738 | 0 0 0 | 0 0 0.0205 |
| UUCCCGUCAG | 0.209 | 0.104 0.0898 0.0922 | 0 0 0 | 0 0 0 |
| UUAUCGCAAG | 0.105 | 0.174 0.144 0.277 | 0 0 0.0232 | 0 0 0 |
| UAAACGACCG | 0.170 | 0.591 0.683 0.443 | 0.110 0.0504 0.0464 | 0 0.0808 0.0615 |
| UGUACGACGG | 0.222 | 0.122 0.0898 0.111 | 0 0 0.0696 | 0 0 0 |
| UGCCCGUUUG | 0.340 | 0.139 0.0539 0.0738 | 0.0552 0 0 | 0 0 0 |
| UGAGCGAGUG | 0.235 | 0.122 0.108 0.0922 | 0 0 0 | 0 0 0 |
| UCGACGUGGG | 0.209 | 0.0695 0.0898 0.0553 | 0 0 0 | 0 0 0 |
| UAAGCGAGCG | 0.183 | 0.0521 0.0539 0.0553 | 0 0 0 | 0 0 0 |
| UGAACGGGUG | 0.235 | 0.730 0.790 1.07 | 0.193 0.101 0.232 | 0.0359 0.101 0.0615 |
| UGGUCGAAAG | 0.183 | 0.104 0.0898 0.0553 | 0 0 0 | 0 0 0 |
| UCAACGUAGG | 0.170 | 0.139 0.0719 0.129 | 0.0276 0 0 | 0 0 0 |
| UAACCGUCGG | 0.196 | 0.0695 0.126 0.0738 | 0 0 0.0232 | 0 0 0 |

A selection of 2 entries from above:

sequence,pool,inoculated region,leaf margin,systemic leaves
UCCCCGGGGG,0.157,0.122 0.0539 0.0922,0 0 0.0232,0 0 0
UACACGAUGG,0.235,0.0348 0.0719 0.0553,0 0 0.0232,0 0 0